Article PMC6356680, “Clerodane Diterpenes from the Marine Sponge Raspailia bouryesnaultae Collected in South Brazil” (Marine Drugs, 2019)
Several values for one entry are separate records, joined by “and”; a condition that tells them apart may be missing. Identical values can stand only once.

Experiments:
HSV-1 (29R strain) = assay: Viral plaque number reduction assay, HSV-1 29R strain; format: cell-based, Herpes Simplex Virus type 1; settings: selective index = CC50 (Vero)/IC50
Protocol: (§1) Firstly, the cytotoxicity of compounds 1–6 was determined by SRB assay as described above. HSV-1 (KOS and 29R strains, which are sensitive and resistant to acyclovir, respectively, Faculty of Pharmacy, University of Rennes I, Rennes, France) were propagated in the permissive Vero cells. Viral stocks were titrated as based on plaque-forming units (PFU), counted by plaque assay as previously described, and stored at −80 °C until used. To perform the anti-HSV-1 screening, the viral plaque number reduction assay was used as described previously by Boff et al.. Briefly, confluent Vero cell monolayers (2.5 × 10^5 cells per well) were infected with approximately 100 PFU of each virus strain for 1 h at 37 °C. Treatments were performed by adding non-cytotoxic concentrations of the compounds after viral infection (post-infection treatment). Cells were then washed with phosphate-buffered saline (PBS) and overlaid with MEM containing 1.5% carboxymethylcellulose (CMC; Sigma-Aldrich) in the presence or absence of different concentrations of the compounds and incubated for 48 h. Cells were fixed and stained with naphthol blue-black (Sigma-Aldrich), and viral plaques were counted by using a stereomicroscope. […] The ratio between CC50 and IC50 values was calculated to obtain the selectivity index (SI) of each sample. […]

HSV-1 (KOS strain) = assay: Viral plaque number reduction assay, HSV-1 KOS strain; format: cell-based, Herpes Simplex Virus type 1; settings: selective index = CC50 (Vero)/IC50
Protocol: as §1

| SMILES | SI (29R Strain) (HSV-1 (29R strain)) | SI (KOS Strain) (HSV-1 (KOS strain)) |
| --- | --- | --- |
| C=C1C(C)=CCC[C@@H]1[C@@](C)(CCc1ccoc1)[C@@H](C)CC(=O)OC [Compound 2, raspadiene] | > 3.0 and >3.33 | > 3.0 and >3.07 |
| COC(=O)[C@@]12C(C)=CCC[C@@H]1[C@@](C)(CCc1ccoc1)[C@@H](C)C[C@H]2O [Compound 4, kerlinic acid methyl ester] | – | 1.87 |
